PubChem BioAssay AID504761, Drosophila RNAi Screening Center | 2011
In all, the deposit lists about 22,000 reagents; this is a random part of those with a known target gene and a result. In the full data, 116 (0.52%) got an active call. 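Calls depend on retest data that are not deposited; infection was ranked per plate without normalising between plates; the unit of the infection score is not given.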 The raw values are shown without normalisation. A plus sign joins genes that one reagent is predicted to hit. Not stated in the record: the amount of reagent, the time to read-out.

Assay: 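Fly genes whose silencing reduces dengue virus type 2 infection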 (primary screen)
System: D.Mel-2 cells from Drosophila
Reagents: long dsRNA against Drosophila genes
Conditions: infection with dengue virus type 2; dose and infection time not stated
Measured: 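Per well on two replicate plates, imaging gave the percent of cells positive for viral envelope protein, ranked by infection, and a nuclear count of cells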
Reading the numbers: infection score: higher = more virus-infected cells; cell count: higher = more cells in the well
Rule for the call: 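Low infection ranks in the two replicates (chance level up to 0.065) followed by a retest with a 1.5-fold or larger significant decrease, p below 0.05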
Calls: active = confirmed: knock-down lowers infection; inactive = not picked or not confirmed

Target gene | dsRNA | infection score, replicate 1 | infection score, replicate 2 | cell count, replicate 1 | cell count, replicate 2 | outcome
CG11898 | DRSC14432 | 0.56 | 2.57 | 5523 | 5955 | inactive
CG11898 | DRSC27906 | 7.89 | 25.7 | 6744 | 5865 | inactive
Phlpp (PH domain leucine-rich repeat protein phosphatase) | DRSC02065 | – | 7.57 | 476 | 5310 | inactive
Phlpp (PH domain leucine-rich repeat protein phosphatase) | DRSC22808 | 0.89 | 9.44 | 6049 | 6448 | inactive
Ir7b (Ionotropic receptor 7b) | DRSC18009 | 4.38 | 0.97 | 5798 | 5672 | inactive
mms4 (Methyl methanesulfonate sensitivity 4) | DRSC06249 | 2.65 | 9.12 | 6805 | 6819 | inactive
CatB (Catalase B) | DRSC03194 | 10.9 | 9.57 | 6079 | 5808 | inactive
CatB (Catalase B) | DRSC24516 | 2.54 | 3.03 | 6688 | 5745 | inactive
CG32079 | DRSC22636 | 7.46 | 8.54 | 6312 | 6519 | inactive
CG13252 | DRSC11700 | 6.24 | 3.05 | 6567 | 6449 | inactive
CG13252 | DRSC27577 | 4.2 | 4.5 | 6569 | 6307 | inactive
RNaseZ (Ribonuclease Z) | DRSC06845 | 7.21 | 1.24 | 6060 | 6427 | inactive
Had2 (beta Hydroxy acid dehydrogenase 2) | DRSC05971 | 9.35 | 8.33 | 6267 | 6505 | inactive
Had2 (beta Hydroxy acid dehydrogenase 2) | DRSC26955 | 7.03 | 6.44 | 6430 | 6058 | inactive
PDZ-GEF (PDZ domain-containing guanine nucleotide exchange factor) | DRSC03231 | 6.41 | 13.3 | 6883 | 6106 | inactive
Cpr67Fa1 + Cpr67Fa2 | DRSC28050 | 14.7 | 8.24 | 2497 | 6101 | inactive
aly (always early) | DRSC08707 | 3.2 | 3.33 | 6276 | 6091 | inactive
aly (always early) | DRSC21784 | 2.37 | 1.97 | 6674 | 6235 | inactive
CG13613 | DRSC14616 | 4.18 | 5.14 | 6025 | 7022 | inactive
CG6136 | DRSC15975 | 31.2 | 24.4 | 5110 | 5216 | inactive
Cdc42 (Cell division cycle 42) | DRSC20228 | 13.5 | 5.63 | 6460 | 6089 | inactive
Cdc42 (Cell division cycle 42) | DRSC25134 | 12.7 | 4.94 | 6811 | 6156 | inactive
Rai1 (Rat1 Interacting Protein 1) | DRSC20157 | 4.1 | 1.5 | 6074 | 6411 | inactive
Rai1 (Rat1 Interacting Protein 1) | DRSC28722 | 23.8 | 16.3 | 4411 | 3501 | inactive
mRpL3 (mitochondrial ribosomal protein L3) | DRSC20100 | 3.45 | 23.6 | 3822 | 5155 | inactive
Tpl94D (Transition protein-like 94D) | DRSC13593 | 0.06 | 0.93 | 6489 | 5805 | inactive
PVRAP (PVR adaptor protein) | DRSC10577 | 1.32 | 2.76 | 6231 | 5834 | inactive

Continued, starting with the last 2 of the part before.
Target gene | dsRNA | infection score, replicate 1 | infection score, replicate 2 | cell count, replicate 1 | cell count, replicate 2 | outcome
Tpl94D (Transition protein-like 94D) | DRSC13593 | 0.06 | 0.93 | 6489 | 5805 | inactive
PVRAP (PVR adaptor protein) | DRSC10577 | 1.32 | 2.76 | 6231 | 5834 | inactive
PGRP-LE (Peptidoglycan recognition protein LE) | DRSC20137 | 1.49 | 12.9 | 6585 | 6122 | inactive
dock (dreadlocks) | DRSC00812 | 1.58 | 1.04 | 6009 | 5949 | inactive
dock (dreadlocks) | DRSC27610 | 5.04 | 3.01 | 6819 | 6576 | inactive
Rgk1 (retired record) | DRSC07343 | 3.46 | 0.41 | 5891 | 6586 | inactive
Rgk1 (retired record) | DRSC25970 | 3.97 | 6.94 | 6500 | 5919 | inactive
gbb (glass bottom boat) | DRSC04687 | 3.06 | 3.08 | 6607 | 7043 | inactive
gbb (glass bottom boat) | DRSC25717 | 4.17 | 1.92 | 6194 | 6212 | inactive
CG41520 | DRSC21102 | 9.49 | 9.02 | 4163 | 6433 | inactive
Sar1 (Secretion-associated Ras-related 1) | DRSC17049 | 1.38 | 2.78 | 6545 | 6221 | inactive
Sar1 (Secretion-associated Ras-related 1) | DRSC22115 | 0.78 | 1.81 | 5673 | 6130 | inactive
Sar1 (Secretion-associated Ras-related 1) | DRSC24141 | 1.25 | 1.06 | 3929 | 4251 | inactive
CG13069 | DRSC09952 | 0.93 | 0.91 | 6114 | 6129 | inactive
ths (thisbe) | DRSC23123 | 1.57 | 5.42 | 6890 | 6699 | inactive
ths (thisbe) | DRSC27271 | 2.29 | 3.93 | 6716 | 6662 | inactive
CG11679 | DRSC19415 | 1.28 | 5.63 | 6881 | 6727 | inactive
Acp63F (Accessory gland protein 63F) | DRSC08137 | 0.92 | 2.14 | 6180 | 6590 | inactive
Cpsf100 (Cleavage and polyadenylation specificity factor 100) | DRSC14146 | 1.14 | 3.37 | 5533 | 5762 | inactive
Cpsf100 (Cleavage and polyadenylation specificity factor 100) | DRSC28396 | 2.62 | 1.19 | 1183 | 419 | inactive
Ythdc1 (YTH domain containing 1) | DRSC08141 | 6.03 | 9.12 | 5841 | 4670 | inactive
Rad1 + Sws1 | DRSC00778 | 2.46 | 4.96 | 6669 | 6634 | inactive
Lhr (Lethal hybrid rescue) | DRSC06759 | 9.26 | 2.71 | 6390 | 921 | inactive
Lhr (Lethal hybrid rescue) | DRSC26915 | 26 | 20.5 | 5979 | 6384 | inactive
Osi11 (Osiris 11) | DRSC12282 | 8.19 | 4.99 | 6142 | 6354 | inactive
Pitslre | DRSC11874 | 19.4 | 36.4 | 3042 | 3048 | inactive
Pitslre | DRSC23346 | 12 | 42.9 | 6271 | 5297 | inactive
CG33232 (retired record) | DRSC08187 | 9.52 | 7.76 | 6505 | 6299 | inactive
CG33232 (retired record) | DRSC08495 | 6.56 | 7.82 | 6819 | 6186 | inactive
CG8541 | DRSC10989 | 3.16 | 0.36 | 5941 | 6408 | inactive
CG8541 | DRSC25235 | 9.67 | 14.5 | 5779 | 5471 | inactive
CG42362 + CG42363 | DRSC04265 | 34.4 | 36 | 5980 | 6512 | inactive
Tfb1 (Transcription factor B1) | DRSC07082 | 2.78 | 10.7 | 6018 | 6187 | inactive
